Anti-infective test results gathered from many reports (values: NIAID ChemDB through PubChem).

Common to all: target-level tests

Blank or dashed fields: not listed here. Rows are shuffled and stem from different studies. Percent inhibition refers to the dose given; in toxicity tests it is the harm to the cells. ICn: concentration for n% inhibition. Fold resistance: result on the changed form divided by that on wild type.

NS(=O)(=O)c1ccc(CCNc2nnc(NC(=O)c3c(Cl)cccc3Cl)s2)cc1 ; agent: Human cytomegalovirus ; target: Polymerase ; endpoint: IC50 ; result: >25 µM
Cn1c(=O)cc[nH]c1=O ; agent: Toxoplasma gondii ; strain: RH ; target: Uracil phosphoribosyltransferase ; endpoint: inhibition ; tested at: 2000 µM ; result: <5%
CCOc1ccc2ccccc2c1C(=O)Nc1nnc(NC2CCCc3ccccc32)s1 ; agent: Human cytomegalovirus ; target: Polymerase ; endpoint: IC50 ; result: <25 µM
O=C(c1ccccc1)N1C[C@H](CN2CCC(c3ccccc3)CC2)[C@@H](c2ccccc2)C1 ; mutations: CCR5-Y251A ; target: CCR5 ; method: radiometric ; endpoint: fold resistance ; result: 11
O=c1[nH]cc(F)c(=O)[nH]1 ; agent: Toxoplasma gondii ; strain: RH ; target: Uracil phosphoribosyltransferase ; endpoint: Ki ; result: 280 µM
O=P(O)(O)C(Cl)(Cl)P(=O)(O)O ; agent: Epstein-Barr virus ; target: DNA polymerase ; endpoint: IC50 ; result: >100 µM
S=c1nccc(Oc2ccccc2)[nH]1 ; agent: Toxoplasma gondii ; strain: RH ; target: Uracil phosphoribosyltransferase ; endpoint: inhibition ; tested at: 2000 µM ; result: <10%
Nc1nc2c(ncn2[C@H]2CC[C@@H](COP(=O)(O)OP(=O)(O)OP(=O)(O)O)O2)c(=O)[nH]1 ; agent: HIV ; mutations: RT-N137S ; target: Reverse transcriptase ; method: nucleotide incorporation / radiometric ; endpoint: IC50 ; result: 0.39 µM
O=C(Nc1nnc(NCc2ccncc2)s1)c1cc2ccccc2s1 ; agent: Human cytomegalovirus ; target: Polymerase ; endpoint: IC50 ; result: >25 µM
O=C(O)C(Cl)(Cl)P(=O)(O)O ; agent: Herpes simplex virus 2 ; target: DNA polymerase ; endpoint: IC50 ; result: >100 µM
O=C(C1CCCCC1)N1C[C@H](CN2CCC(c3ccccc3)CC2)[C@@H](c2ccccc2)C1 ; mutations: CCR5-E283A ; target: CCR5 ; method: radiometric ; endpoint: fold resistance ; result: >434.8
O=C(O)C(F)(Br)P(=O)(O)O ; agent: Epstein-Barr virus ; target: DNA polymerase ; endpoint: inhibition ; tested at: 100 µM ; result: 43%
CO[P@](=O)(c1cc(C)cc(/C=C/C#N)c1)c1c(C(N)=O)[nH]c2ccc(Cl)c(F)c12 ; agent: HIV ; mutations: M184V ; target: Reverse transcriptase ; endpoint: IC50 ; result: 0.29 µM
O=C(O)C(Cl)P(=O)(O)O ; agent: Herpes simplex virus 2 ; target: DNA polymerase ; endpoint: IC50 ; result: 5.4 µM
O=C(Nc1nnc(NCC2CCCCC2)s1)c1ccc2c(c1)C(=O)OC2=O ; agent: Human cytomegalovirus ; target: Polymerase ; endpoint: IC50 ; result: <25 µM
CS(=O)(=O)c1cc(=O)[nH]c(=O)[nH]1 ; agent: Toxoplasma gondii ; strain: RH ; target: Uracil phosphoribosyltransferase ; endpoint: inhibition ; tested at: 2000 µM ; result: <5%
CC(C)=CCOc1cc(NC(=S)c2ccoc2C)ccc1Cl ; agent: HIV ; mutations: RT-P95A ; target: Reverse transcriptase ; method: nucleotide incorporation / radiometric ; endpoint: IC50 ; result: 0.014 µM
CCCCCCCC/C=C/CCCCCCCC(=O)Nc1nnc(NC2CCCCCC2)s1 ; agent: Human cytomegalovirus ; target: Polymerase ; endpoint: IC50 ; result: <25 µM
CC(C)C(=O)N1C[C@H](CN2CCC(c3ccccc3)CC2)[C@@H](c2ccccc2)C1 ; target: CCR5 ; method: radiometric ; endpoint: IC50 ; result: 0.12 µM
CCOc1ccc2ccccc2c1C(=O)Nc1nnc(NCc2ccco2)s1 ; agent: Human cytomegalovirus ; target: Polymerase ; endpoint: IC50 ; result: >25 µM
CCc1cnccn1 ; agent: Toxoplasma gondii ; strain: RH ; target: Uracil phosphoribosyltransferase ; endpoint: IC50 ; result: >2000 µM
O=P(O)(O)C(Br)P(=O)(O)O ; agent: Herpes simplex virus 2 ; target: DNA polymerase ; endpoint: IC50 ; result: >100 µM
O=C(Nc1nnc(NCCCN2CCCC2=O)s1)c1ccc(Br)cc1 ; agent: Human cytomegalovirus ; target: Polymerase ; endpoint: IC50 ; result: >25 µM
O=c1cc[nH]c(=O)[nH]1 ; agent: Toxoplasma gondii ; strain: RH ; target: Uracil phosphoribosyltransferase ; endpoint: Ki ; result: 53 µM
O=C(Nc1nnc(NCCc2ccccc2)s1)c1c(Cl)cccc1Cl ; agent: Human cytomegalovirus ; target: Polymerase ; endpoint: IC50 ; result: >25 µM
Cc1cn([C@@H]2O[C@H](CO[Si](C)(C)C(C)(C)C)[C@@]3(OS(=O)(=O)C=C3N)[C@H]2O[Si](C)(C)C(C)(C)C)c(=O)[nH]c1=O ; agent: HIV ; mutations: RT-N137A ; target: Reverse transcriptase ; method: nucleotide incorporation / radiometric ; endpoint: fold resistance ; result: 1.1

The last 3 rows once more:

smiles	agent	strain	mutations	target	method	endpoint	tested at	result
O=c1cc[nH]c(=O)[nH]1	Toxoplasma gondii	RH		Uracil phosphoribosyltransferase		Ki		53 µM
O=C(Nc1nnc(NCCc2ccccc2)s1)c1c(Cl)cccc1Cl	Human cytomegalovirus			Polymerase		IC50		>25 µM
Cc1cn([C@@H]2O[C@H](CO[Si](C)(C)C(C)(C)C)[C@@]3(OS(=O)(=O)C=C3N)[C@H]2O[Si](C)(C)C(C)(C)C)c(=O)[nH]c1=O	HIV		RT-N137A	Reverse transcriptase	nucleotide incorporation / radiometric	fold resistance		1.1